Pooled drug test results. Numbers come from NIAID ChemDB, via PubChem.

Shared fields: whole-cell or culture tests; agent: Candida albicans; endpoint: MIC

An empty or dashed field is not shown.

structure,strain or isolate,read by,value
CSc1cc(-c2ccc(Cl)cc2)c(C(=O)O)s1,SKF,-,>100 µg/mL
Cc1c(Sc2ccccc2)[n+](=O)c2cc(C(F)(F)F)ccc2n1[O-],Clinical isolate 22,-,7.8 µg/mL
Cc1ccc(NC2=C(Br)C(=O)c3ccccc3C2=O)cc1,-,-,25 µg/mL
C=C1/C=C(\C)[C@H](CC)OC(=O)[C@H](C)C(=O)C(O)(CO)C/C(OC)=C/[C@@H](C)C1,CLY539,-,1 µg/mL
C[C@@H](n1cnc2cc(NCc3ccccc3)ccc2c1=O)[C@](O)(Cn1cncn1)c1ccc(F)cc1F,406 strains,-,≤0.03 µg/mL
Cc1c(S(=O)(=O)c2ccccc2)[n+](=O)c2cc(Cl)ccc2n1[O-],Clinical isolate 9,-,31.25 µg/mL
Brc1cc(Br)c2ncnc(NCCNc3nc(NC4CC4)nc(N4CCN(C(c5ccccc5)c5ccccc5)CC4)n3)c2c1,MTCC 183,agar,50 µg/mL
Cc1nc2c(s1)C(=O)C(Nc1ccc(Cl)cc1)=C(Cl)C2=O,KCCM 50235,broth dilution,50 µg/mL
O=C(O)c1cccc(NC2=C(Cl)C(=O)c3ccccc3C2=O)c1,-,-,100 µg/mL
O=C(CSc1nnc(-c2ccc(N=Cc3cccs3)cc2)o1)Nc1ccc(Cl)cc1,MTCC 227,broth dilution,100 µg/mL
C[C@@H](n1cnc2cc(N3CCOC3=O)ccc2c1=O)[C@](O)(Cn1cncn1)c1ccc(F)cc1F,76 strains,-,2.5 µg/mL
CCCCCCCCCCCCC#CCCC#CC(=O)O,ATCC 60913,-,80.2 µM
CC(=O)N1CCN(c2nc(NCCNc3ncnc4c(Br)cc(Br)cc34)nc(NC3CC3)n2)CC1,MTCC 183,agar,50 µg/mL
O=C1C(Cl)=C(NCl)C(=O)c2ccccc21,-,-,50 µg/mL
CCCCCCCCOc1ccc(C(=O)NC2C[C@@H](O)[C@@H](O)NC(=O)C3[C@@H](O)[C@@H](C)CN3C(=O)C(C(C)O)NC(=O)C([C@H](O)[C@@H](O)c3ccc(O)cc3)NC(=O)C3C[C@@H](O)CN3C(=O)C(C(C)O)NC2=O)cc1,86-21B,-,0.25 µg/mL
Clc1nc(NC2CC2)nc(N2CCN(c3ncccn3)CC2)n1,MTCC 183,agar,100 µg/mL
Cc1ccc(NC2=C(Cl)C(=O)c3nc(C)sc3C2=O)cc1,KCCM 50235,broth dilution,12.5 µg/mL
C[C@@H](n1cnc2cc(C#N)ccc2c1=O)[C@](O)(Cn1cncn1)c1ccc(F)cc1F,76 strains,-,0.15 µg/mL
O=C(Cc1csc2nc(-c3ccc(Br)cc3)cn12)NNC(=S)Nc1ccccc1,ATCC 10231,-,32 µg/mL
CCOC(=O)c1sc(SC)c(C(=O)OC)c1O,SKF,-,12.5 µg/mL
Nc1ccccc1NC1=C(O)c2ccccc2C(=O)C1=O,-,-,100 µg/mL
Cc1ccc(/C=N/NC(=O)c2nnn(-c3ccnc4c(C(F)(F)F)cccc34)c2C)cc1,-,-,25 µg/mL
O=c1[nH]c2ccc(C(F)(F)F)cc2nc1CBr,ATCC 90029,-,15.6–62.5 µg/mL
CCOC(=O)c1sc2cc(-c3cccnc3)oc(=O)c2c1N,SKF,-,>100 µg/mL
C=CC(C)(C)C1(C)OC=CC1(C)CC(=O)C(O)C(OC)C(C)O,-,-,>200 µg/mL
O=c1[nH]c2cc(C(F)(F)F)ccc2nc1CBr,ATCC 90029,-,15.6–62.5 µg/mL
COc1cccc(NC(=O)CSc2nnc(-c3ccc(N=Cc4cccs4)cc3)o2)c1,MTCC 227,broth dilution,125 µg/mL
COc1ccc(NC2=C(Cl)C(=O)c3nc(C)sc3C2=O)cc1,KCCM 50235,broth dilution,1.6 µg/mL
CO[C@H]1[C@@H](OC(=O)OCc2ccccc2)[C@H](O)[C@H](OCC23C4C=C(C(C)C)C2(C(=O)O)C(C=O)(C4)[C@@H]2CC[C@@H](C)[C@H]23)O[C@@H]1C,1208,-,8 µg/mL
O=C1C(Br)=C(Nc2cccc([N+](=O)[O-])c2)C(=O)c2ccccc21,-,-,25 µg/mL
CCCNC(=S)NNC(=O)Cc1csc2nc(-c3ccc(Br)cc3)cn12,ATCC 10231,-,>32 µg/mL
C[C@@H](NC(=O)c1ccc(Cl)cc1NC=O)[C@](O)(Cn1cncn1)c1ccc(F)cc1F,60 strains,-,≤0.03 µg/mL
Cc1c(C(=O)/C=C/c2ccco2)nnn1-c1ccnc2c(C(F)(F)F)cccc12,-,-,12.5 µg/mL
Cc1ccccc1NC(=O)CSc1nnc(-c2ccc(N=Cc3cccs3)cc2)o1,MTCC 227,broth dilution,500 µg/mL
CCCCN1C(=O)CS/C1=N\NC(=O)Cc1csc2nc(-c3ccc(Br)cc3)cn12,ATCC 10231,-,>32 µg/mL
COc1cc(/C=C/C(=O)c2nnn(-c3ccnc4c(C(F)(F)F)cccc34)c2C)c([N+](=O)[O-])cc1OC,-,-,25 µg/mL
CCOc1cc2c(cc1F)n([O-])c(C)c(Cl)[n+]2=O,Clinical isolate 2,-,15.6 µg/mL
Cc1nc2c(s1)C(=O)C(Nc1ccc(C)c(C)c1)=C(Cl)C2=O,KCCM 50235,broth dilution,3.2 µg/mL
Cc1ccc(/C=C/C(=O)c2nnn(-c3ccnc4c(C(F)(F)F)cccc34)c2C)cc1,-,-,25 µg/mL
O=c1[nH]c2cc(C(F)(F)F)ccc2nc1C(F)(F)F,ATCC 90029,-,8 µg/mL
CCCCC/C=C/C=C/C(O)C/C=C/C=C/C(=O)OC1C(O)C(c2c(O)cc(O)cc2CO)OC(CO)C1OC1OC(C(O)COC(=O)/C=C/C=C\CCC(O)CC)C(O)C1O,C-A-24,-,0.39 µg/mL
O=C1C(=O)c2ccccc2C(O)=C1Nc1cccc([N+](=O)[O-])c1,-,-,100 µg/mL
CCCN1C(=O)CS/C1=N\NC(=O)Cc1csc2nc(-c3ccc(Br)cc3)cn12,ATCC 10231,-,>32 µg/mL
Brc1cc(Br)c2ncnc(NCCNc3nc(NC4CC4)nc(N4CCN(c5ncccn5)CC4)n3)c2c1,MTCC 183,agar,25 µg/mL
CCOC(=O)c1sc(SC)c(C(=O)OCC)c1O,SKF,-,>100 µg/mL
COc1cc(O)c2c(c1)C(=O)c1c(cc3c(c1O)-c1c(cc(C)c(C(=O)NC(CO)C(=O)O)c1O)[C@H](OC1OC(C)C(O)C(OC4OCC(O)C(O)C4O)C1O)C3O)C2=O,AD 83/004 (azole-resistant),-,4 µg/mL
O=C(CSc1nnc(-c2ccc(N=Cc3cccs3)cc2)o1)Nc1ccc(Br)cc1,MTCC 227,broth dilution,1000 µg/mL
C[C@@H](n1cnc2cc(N3CCOCC3)ccc2c1=O)[C@](O)(Cn1cncn1)c1ccc(F)cc1F,60 strains,-,1.25 µg/mL
Cc1c(S(=O)(=O)c2ccccc2)[n+](=O)c2ccccc2n1[O-],Clinical isolate 11,-,31.25 µg/mL
C[C@@H](c1nc(-c2ccc(C#N)cc2)cs1)[C@](O)(Cn1cncn1)c1ccc(F)cc1F,E81113,-,0.78 µg/mL
Fc1ccc(N2CCN(c3nc(NCCNc4ncnc5c(Br)cc(Br)cc45)nc(NC4CC4)n3)CC2)cc1,MTCC 183,agar,50 µg/mL

Conditions beyond the fields shown may differ between rows. Two numbers with a dash give a range or band.